Pooled drug test results. Numbers come from NIAID ChemDB, via PubChem.

All rows: cytotoxicity tests; cells: Vero mammalian cells; method: MTT; endpoint: CC50

CCn is the concentration with n% toxicity to the cells.

COc1c(N2CCN(C(=O)C3COc4ccccc4O3)CC2)c(F)cc2c(=O)c(C(=O)O)cn(C3CC3)c12 ; result: 119 µM
CN1CCN(c2cc3c(cc2F)c(=O)c(C(=O)O)cn3C(C)(C)C)CC1c1ccccc1 ; result: 142.9 µM
COc1cc2c(cc1OC)CN(c1c(F)cc3c(=O)c(C(=O)O)cn4c3c1OCC4C)CC2 ; result: >138 µM
O=C(O)c1cn(C2CC2)c2cc(N3CCC(O)(c4ccc(Cl)cc4)CC3)c([N+](=O)[O-])cc2c1=O ; result: >137 µM
O=C(O)c1cn2c(n1)CN(c1cc3c(cc1[N+](=O)[O-])c(=O)c(C(=O)O)c1sc4ccccc4n13)CC2 ; result: 124 µM
O=C(O)c1cn(C2CC2)c2cc(N3CCN(C(c4ccccc4)c4ccc(Cl)cc4)CC3)c(F)cc2c1=O ; result: >117.5 µM
C[C@H]1COc2c(N3CCc4ccccc4C3C(=O)NC(C)(C)C)c(F)cc3c(=O)c(C(=O)O)cn1c23 ; result: 127 µM
COc1cc2c(cc1OC)CN(c1cc3c(cc1[N+](=O)[O-])c(=O)c(C(=O)O)c1sc4ccccc4n13)CC2 ; result: 117.6 µM
COc1c(N2COCC2(C)C)c(F)c([N+](=O)[O-])c2c(=O)c(C(=O)O)cn(C3CC3)c12 ; result: 148 µM
COc1c(N2CCNC(C)C2)c(F)cc2c(=O)c(C(=O)O)cn(C3CC3)c12 ; result: >155.3 µM
COc1ccc(CC2C3=C(CCCC3)CCN2c2c(F)c([N+](=O)[O-])c3c(=O)c(C(=O)O)cn(C4CC4)c3c2OC)cc1 ; result: 108 µM
O=C(O)c1c(=O)c2cc([N+](=O)[O-])c(N3CCN(Cc4ccc5c(c4)OCO5)CC3)cc2n2c1sc1ccccc12 ; result: 111.9 µM
CC1CN(c2c(F)cc3c(=O)c(C(=O)O)cn4c3c2OC[C@@H]4C)CC(C)O1 ; result: >166 µM
COc1c(N2CCc3ccccc3C2C(=O)NC(C)(C)C)c(F)c([N+](=O)[O-])c2c(=O)c(C(=O)O)cn(C3CC3)c12 ; result: 113 µM
Cc1onc(-c2c(F)cccc2F)c1C(=O)N1CCN(c2c(F)c([N+](=O)[O-])c3c(=O)c(C(=O)O)cn4c3c2OCC4C)CC1 ; result: 102 µM
COc1c(N2CCNC(C)C2)c(F)cc2c(=O)c(C(=O)O)cn(C3CC3)c12 ; result: >155.3 µM
COc1c(N2CCSCC2)c(F)c([N+](=O)[O-])c2c(=O)c(C(=O)O)cn(C3CC3)c12 ; result: 148 µM
O=C(O)c1c(=O)c2cc(F)c(N3CCN(C(c4ccccc4)c4ccc(Cl)cc4)CC3)cc2n2c1sc1ccccc12 ; result: 104.5 µM
COc1cc2c(cc1OC)CN(c1cc3c(cc1[N+](=O)[O-])c(=O)c(C(=O)O)cn3C1CC1)CC2 ; result: >142.5 µM
COc1c(N2CCC3(CC2)OCCO3)c(F)c([N+](=O)[O-])c2c(=O)c(C(=O)O)cn(C3CC3)c12 ; result: 135 µM

Repeating the first 2 entries:

{"smiles": "COc1c(N2CCN(C(=O)C3COc4ccccc4O3)CC2)c(F)cc2c(=O)c(C(=O)O)cn(C3CC3)c12", "result": "119 µM"}
{"smiles": "CN1CCN(c2cc3c(cc2F)c(=O)c(C(=O)O)cn3C(C)(C)C)CC1c1ccccc1", "result": "142.9 µM"}

Neighbouring rows are from separate reports.